Pooled drug test results. Numbers come from NIAID ChemDB, via PubChem.

All rows: whole-cell or culture tests; agent: Cryptococcus neoformans; read-out: MIC90

MIC50, MIC90 and the like: level of inhibition, or share of isolates inhibited.

compound,strain or isolate,read by,value
CCNC(CCC(C)C1CC[C@@]2(C)C3=C(CCC12C)C1(C)CC[C@H](OC(C)=O)C(C)(C)C1CC3)C(C)C,A.34144,,50 µg/mL
CCCCCOc1ccc(-c2ccc(-c3ccc(C(=O)N[C@H]4C[C@@H](O)[C@@H](O)NC(=O)[C@@H]5[C@@H](O)[C@@H](C)CN5C(=O)[C@H]([C@H](C)O)NC(=O)[C@H]([C@H](O)[C@@H](O)c5ccc(O)cc5)NC(=O)[C@@H]5C[C@@H](O)CN5C(=O)[C@H]([C@H](C)O)NC4=O)cc3)cc2)cc1,10 strains,,>6 µg/mL
CC(C)C(N)CCC(C)C1CC[C@@]2(C)C3=C(CCC12C)C1(C)CC[C@H](O)C(C)(C)C1CC3,IFM.40092,,0.1 µg/mL
COc1cc(O)c2c(c1)C(=O)c1c(cc3c(c1O)-c1c(cc(C)c(C(=O)NC(CO)C(=O)O)c1O)[C@H](OC1OC(C)C(O)C(OC4OCC(O)C(O)C4O)C1O)C3O)C2=O,15 isolates,,2 µg/mL
C[C@@H](c1nc(-c2ccc(C#N)cc2)cs1)[C@](O)(Cn1cnnc1)c1ccc(F)cc1F,32 isolates,,0.016 µg/mL
C[C@H]1[C@H](O)[C@@H](C)/C=C/C=C/C=C/C=C/C=C/C=C/C=C/[C@H](O[C@@H]2O[C@H](C)[C@@H](O)[C@H](N)[C@@H]2O)C[C@@H]2O[C@](O)(C[C@@H](O)C[C@@H](O)CC[C@H](O)[C@@H](O)C[C@@H](O)CC(=O)O[C@H]1C)C[C@H](O)[C@H]2C(=O)O,37 strains,,0.25 µg/mL
C=C1CO[C@H]2[C@@H](C)OC(OC[C@@]34C[C@H]5[C@H](C)CC[C@@H]5[C@@]5(C=O)C[C@@H]3C=C(C(C)C)[C@@]45C(=O)O)C[C@@H]12,22 strains (serotype C),,1 µg/mL
CC(C)C(CCC(C)C1CC[C@@]2(C)C3=C(CCC12C)C1(C)CC[C@H](O)C(C)(C)C1CC3)Sc1ccccc1,A.34144,,25 µg/mL
C[C@@H](c1ncncc1F)[C@](O)(Cn1cncn1)c1ccc(F)cc1F,,,0.034 µg/mL
CN[C@H]1CC[C@@H](c2ccc(Cl)c(Cl)c2)c2ccccc21,3-17,broth dilution,4 µg/mL
C[C@@H](c1ncncc1F)[C@](O)(Cn1cncn1)c1ccc(F)cc1F,12 strains,,0.12 µg/mL
CC(C)C(CCC(C)C1CCC2C3CC=C4C[C@@H](O)CCC4(C)C3CCC12C)NS(=O)(=O)O,B42419,,0.1 µg/mL
c1ccc(-c2ccc(C(c3ccccc3)n3ccnc3)cc2)cc1,33 strains,,5 µg/mL
COC(=O)[C@H]1[C@@H]2C[C@@H](O[C@@H]3O[C@H](C)[C@@H](O)[C@H](N)[C@@H]3O)/C=C/C=C/C=C/C=C/C=C/C=C/C=C/[C@H](C)[C@@H](O)[C@H](C)[C@H](C)OC(=O)C[C@H](O)C[C@H](O)[C@@H](O)CC[C@H](O)C[C@H](O)C[C@](O)(C[C@@H]1O)O2,42 isolates (HIV+),,0.03 µg/mL
CC(C)C(N)CCC(C)C1CCC2C3CC=C4C[C@@H](O)CCC4(C)C3CCC12C,B42419,,0.39 µg/mL

A second listing of 2 rows from above:

compound,strain or isolate,read by,value
CN[C@H]1CC[C@@H](c2ccc(Cl)c(Cl)c2)c2ccccc21,3-17,broth dilution,4 µg/mL
COc1cc(O)c2c(c1)C(=O)c1c(cc3c(c1O)-c1c(cc(C)c(C(=O)NC(CO)C(=O)O)c1O)[C@H](OC1OC(C)C(O)C(OC4OCC(O)C(O)C4O)C1O)C3O)C2=O,15 isolates,,2 µg/mL

Lines come from different laboratories, so protocols vary. An empty or dashed field is not shown.